Results of unrelated studies side by side (data: NIAID ChemDB).

Shared fields: whole-cell or culture tests; organism: Mycobacterium avium; read-out: MIC

Two numbers with a dash give a range or band.

compound,strain,method,setting,value
Cc1c(CN2CCN(C)CC2)cc(-c2ccc(Cl)cc2)n1Cc1ccccc1,103317,,,8 µg/mL
O=C(O)c1cn(C2CC2)c2c(F)c(N3CCSCC3)c(F)cc2c1=O,1915112,,,2–4 µg/mL
CCCCCCCCOC(=O)O[C@@H]1[C@H](OC)[C@@H]([C@@H](C[C@H]2OC(C(=O)N[C@H]3CCC[C@@H](C)NC3=O)=C[C@H](O)[C@@H]2O)C(N)=O)O[C@H]1n1ccc(=O)[nH]c1=O,HIHJ 1605,,,0.25 µg/mL
Cc1[nH]c(-c2ccc(Cl)cc2)cc1CN1CCOCC1,103317,,,>64 µg/mL
CC[C@@H](CO)NCCN[C@@H](CC)CO,MTCC1723,,,15 µg/mL
CO[C@H]1/C=C/O[C@@]2(C)Oc3c(C)c(O)c4c(=O)c(c5oc6cc(N7CCN(CC(C)C)CC7)cc(=O)c6nc5c4c3=C2O)NC(=O)/C(C)=C\C=C\[C@H](C)[C@H](O)[C@@H](C)[C@@H](O)[C@@H](C)[C@H](OC(C)=O)[C@@H]1C,453,,,0.016 µg/mL
O=C(O)c1cn(C2CC2)c2c(Cl)c(N3C[C@@H]4CCCN[C@@H]4C3)c(F)cc2c1=O,II,,,4 µg/mL
Cc1[nH]c(-c2ccc(Cl)cc2)c(CN2CCOCC2)c1CN1CCOCC1,103317,,,>64 µg/mL
CC1COc2c(N3CCN(C)CC3)c(F)cc3c(=O)c(C(=O)O)cn1c23,Isolate 7497,,,1.25 µg/mL
O=C(O)c1cn(C2CC2)c2cc(N3CCNCC3)c(F)cc2c1=O,,,,4 µg/mL
NCC[C@H](O)C(=O)N[C@@H]1C[C@H](N)[C@@H](O[C@H]2O[C@H](CN)[C@@H](O)[C@H](O)[C@H]2O)[C@H](O)[C@H]1O[C@H]1O[C@H](CO)[C@@H](O)[C@H](N)[C@H]1O,ATCC 25291,,,8 µg/mL
O=C(NCc1ccc(N2CCN(Cc3ccccc3)CC2)cc1)c1ccc([N+](=O)[O-])o1,ATCC 25291,,,200 µg/mL
C[C@@H]1CN(c2c(F)c(N)c3c(=O)c(C(=O)O)cn(C4CC4)c3c2F)C[C@H](C)N1,,,,4 µg/mL
O=C(O)c1cn(C2CC2)c2c(F)c(N3CCS(=O)CC3)c(F)cc2c1=O,TMC 1403,,,≤0.25 µg/mL
CCn1cc(C(=O)O)c(=O)c2ccc(C)nc21,3 strains,,,256 µg/mL
CCCCCCCCCCO[C@@H]1[C@H](OC)[C@@H]([C@@H](C[C@H]2OC(C(=O)N[C@H]3CCC[C@@H](C)NC3=O)=C[C@H](O)[C@@H]2O)C(N)=O)O[C@H]1n1ccc(=O)[nH]c1=O,HIHJ 1605,,,1 µg/mL
Cc1c(CN2CCOCC2)c(CN2CCOCC2)c(C)n1Cc1ccccc1,103317,,,>64 µg/mL
C[C@@H]1CN(c2c(F)c(N)c3c(=O)c(C(=O)O)cn(C4CC4)c3c2F)C[C@H](C)N1,1915112,,,2 µg/mL
Cc1c(CN2CCSCC2)cc(-c2ccc(F)cc2)n1-c1ccccc1,103317,,,16 µg/mL
CO[C@H]1/C=C/O[C@@]2(C)Oc3c(C)c(O)c4c(O)c(c(/C=N/N5CCN(C)CC5)c(O)c4c3C2=O)NC(=O)/C(C)=C\C=C\[C@H](C)[C@H](O)[C@@H](C)[C@@H](O)[C@@H](C)[C@H](OC(C)=O)[C@@H]1C,Isolate 90-0969,,,30 µg/mL
NNC(=O)c1ccncc1,,fluorescence,,0.31 µM
O=C(NCc1ccc(N2CCN(Cc3ccccc3)CC2)nc1)c1ccc([N+](=O)[O-])o1,ATCC 25291,,,100 µg/mL
Cc1cc(CN2CCOCC2)c(C)n1Cc1ccccc1,103317,,,>64 µg/mL
CN1CCN(c2cc3c(cc2F)c(=O)c(C(=O)O)cn3-c2ccc(F)cc2)CC1,ATCC 25291,,,>64 µg/mL
CCn1cc(C(=O)O)c(=O)c2cc(F)c(C(C)=O)cc21,1915112,,,>32 µg/mL
c1ccc2c(c1)n1[se]n21,,,,915 µg/mL
CCCCCCn1c(C)cc(CN2CCOCC2)c1C,103317,,,>64 µg/mL
CC1CN(c2c(F)cc3c(=O)c(C(=O)O)cn(C4CC4)c3c2F)CCN1,TMC 1403,,,≤0.25 µg/mL
CC[C@H]1OC(=O)[C@H](C)[C@@H](O[C@H]2C[C@@](C)(OC)[C@@H](O)[C@H](C)O2)[C@H](C)[C@@H](O[C@@H]2O[C@H](C)C[C@H](N(C)C)[C@H]2O)[C@](C)(O)C[C@@H](C)C(=O)[C@H](C)[C@@H](O)[C@]1(C)O,ATCC 25291,,,16 µg/mL
NC1CCN(c2c(F)cc3c(=O)c(C(=O)O)cn(C4CC4)c3c2F)C1,1915112,,,16 µg/mL
CC1(C)CC(=O)C2=C(C1)OC1=C(C(=O)CC(C)(C)C1)[Se]2=O,,,,55.46 µg/mL
O=c1oc2ccc(Cl)cc2c(=S)n1Cc1ccccc1,My 88,,21 d,65 µM
CCCCCCn1c(-c2ccc(Cl)cc2)cc(CN2CCN(C)CC2)c1C,103317,,,>64 µg/mL

3 of the rows above, restated:

compound | strain | method | setting | value
CN1CCN(c2cc3c(cc2F)c(=O)c(C(=O)O)cn3-c2ccc(F)cc2)CC1 | ATCC 25291 |  |  | >64 µg/mL
C[C@@H]1CN(c2c(F)c(N)c3c(=O)c(C(=O)O)cn(C4CC4)c3c2F)C[C@H](C)N1 | 1915112 |  |  | 2 µg/mL
CC1(C)CC(=O)C2=C(C1)OC1=C(C(=O)CC(C)(C)C1)[Se]2=O |  |  |  | 55.46 µg/mL

Blank or dashed fields: not listed here. Rows are shuffled and stem from different studies.